Measured values from several laboratories, pooled; numbers as filed in NIAID ChemDB.

Shared fields: whole-cell or culture tests; organism: HIV-1; cell line: MT-2; endpoint: EC50

Conditions beyond the fields shown may differ between rows.

Cc1cc2nc3cn2c(c1[C@H](OC(C)(C)C)C(=O)O)N1CCC(C)(CC1)OCCC[C@H](C)Oc1cc(F)ccc1-c1cccc-3c1 ; read by: luciferase ; value: 0.005 µM
CC(C)CCC[C@@H](C)[C@H]1CC[C@H]2[C@@H]3CC[C@H]4C[C@@H](CCC=C(c5cc(Cl)c(O)c(C(=O)O)c5)c5cc(Cl)c(O)c(C(=O)O)c5)CC[C@]4(C)[C@H]3CC[C@]12C ; strain: clinical isolate A012 AZT-resistant ; read by: cytopathic effect ; value: 10 µM
C=CC[C@H](NC(=O)[C@H](Cc1ccccc1)NS(=O)(=O)N1CCOCC1)C(=O)N[C@@H](CC1CCCCC1)[C@@H](O)C[C@H](C(=O)NCCCC)C(C)C ; strain: IIIB ; read by: cytopathic effect / XTT ; value: 2.7 µM
C=C(C)[C@@H]1CC[C@]2(CCNC(C)(C)CN3CCN(C)CC3)CC[C@]3(C)[C@H](CC[C@@H]4[C@@]5(C)CC[C@H](OC(=O)CC(C)(C)C(=O)O)C(C)(C)[C@@H]5CC[C@]43C)[C@@H]12 ; strain: IIIB ; read by: XTT ; value: 0.012 µM
CC(C)(C)NC(=O)[C@@H]1C[C@@H]2CCCC[C@@H]2CN1C[C@@H](O)[C@H](Cc1ccccc1)NC(=O)c1cccc(O)c1Cl ; strain: RF ; read by: cytopathic effect / MTT ; value: 0.518 µg/mL
CC[C@@H]1O[C@](C#CC2CC2)(C(F)(F)F)c2cc(F)ccc2NC1=O ; strain: RF ; value: <0.0053 µM
Cc1cc(/C=C/C#N)cc(Oc2cc(Nc3ncnc(C4CC4)n3)ccc2C#N)c1 ; strain: IIIB ; read by: MTT ; value: 0.0017 µM
CC(C)C1=C2[C@H]3CC[C@@H]4[C@@]5(C)CC[C@H](OC(=O)[C@H]6C[C@@H](C(=O)O)C6(C)C)C(C)(C)[C@@H]5CC[C@@]4(C)[C@]3(C)CC[C@@]2([C@@H](O)CNCC(C)(C)NC(=O)c2ccc(O[C@@H]3CCOC3)cc2)CC1=O ; strain: 92HT599 ; read by: p24 / ELISA ; value: <1 µM
C[C@@H]1O[C@](C#CC2CC2)(C(F)(F)F)c2cc(Cl)ccc2NC1=O ; strain: RF ; value: <0.0022 µM
CC(C)C1=C2[C@H]3CC[C@@H]4[C@@]5(C)CC[C@H](OC(=O)[C@H]6C[C@@H](C(=O)O)C6(C)C)C(C)(C)[C@@H]5CC[C@@]4(C)[C@]3(C)CC[C@@]2(CC(=O)NCc2ccc(Cl)cc2O[C@H]2CCOC2)CC1=O ; strain: 92HT599 ; read by: p24 / ELISA ; value: <1 µM
COc1ccnc(Nc2ccc(C#N)c(Oc3cccc(/C=C/C#N)c3)c2)n1 ; strain: IIIB ; read by: MTT ; value: 0.26 µM
Cn1nc(NS(C)(=O)=O)c2c(Cl)ccc(-n3c([C@@H](Cc4cc(F)cc(F)c4)NC(=O)Cn4nc(C(F)(F)F)c5c4C(F)(F)[C@@H]4C[C@H]54)nccc3=O)c21 ; strain: NL4-3 ; read by: luminescence ; value: 0.07 µM
COc1cnc(-n2cnc(C)n2)c2[nH]cc(C(=O)C(=O)N3C/C(=C(\C#N)c4ccccc4)CCN3)c12 ; strain: LAI ; read by: luciferase / reporter gene ; value: 0.02562 µM
O=C(NCc1ccc(F)cc1)c1nc2n(c(=O)c1O)CCCCC21CCN(C(=O)OCc2ccccc2)CC1 ; strain: NL4-3 ; read by: luciferase / reporter gene ; value: 0.01–0.1 µM
O=C1CO[C@](C#Cc2ccoc2)(C(F)(F)F)c2cc(Cl)ccc2N1 ; strain: RF ; value: <0.0475 µM
Cc1cc2nc3cn2c(c1[C@H](OC(C)(C)C)C(=O)O)N1CCC(C)(CC1)OC/C=C/C[C@@H](C)Oc1cc(F)cc(F)c1-c1cccc-3c1 ; read by: luciferase ; value: 0.002 µM
N#Cc1ccc(Nc2nccc(C3CC3)n2)cc1Oc1cc(F)cc(F)c1 ; strain: IIIB ; read by: MTT ; value: 0.78 µM
Nc1nc(N)c2ncn([C@H]3CC[C@@H](CO)C3)c2n1 ; strain: IIIB ; read by: cytopathic effect ; value: 16.7 µg/mL
Nc1ncnc2c1ncn2C[C@@H](CO)OCP(=O)(O)O ; strain: LAI ; read by: p24 ; value: 77.5 µM
Cn1nc(NS(C)(=O)=O)c2c(Cl)ccc(-n3c(C(Cc4cc(F)cc(F)c4)NC(=O)Cn4nc(C(F)F)c5c4C(F)(F)[C@@H]4C[C@H]54)nccc3=O)c21 ; strain: NL4-3 ; read by: luminescence ; value: 0.0327 µM
COc1ccc2c(c1)OCC/C=C\CN(C[C@@H](O)[C@H](Cc1ccccc1)NC(=O)O[C@H]1CO[C@H]3OCC[C@H]31)S2(=O)=O ; strain: LAI ; read by: MTT ; value: 0.02 µM
CC(C)C1=C2[C@H]3CC[C@@H]4[C@@]5(C)CC[C@H](OC(=O)CC(C)(C)C(=O)O)C(C)(C)[C@@H]5CC[C@@]4(C)[C@]3(C)CC[C@@]2(C(=O)Nc2ccncc2)CC1=O ; strain: IIIB ; read by: RT activity ; setting: 30% human serum ; value: <0.199 µM
CC(C)C1=C2[C@H]3CC[C@@H]4[C@@]5(C)CC[C@H](OC(=O)[C@H]6C[C@@H](C(=O)O)C6(C)C)C(C)(C)[C@@H]5CC[C@@]4(C)[C@]3(C)CC[C@@]2(CCNCC2CCCC2)CC1=O ; strain: 92HT599 ; read by: p24 / ELISA ; value: <1 µM
Cc1c(NS(C)(=O)=O)cccc1C(=O)N[C@@H](Cc1ccccc1)[C@@H](O)CN1C[C@H]2CCCC[C@H]2C[C@H]1C(=O)NC(C)(C)C ; strain: RF ; read by: cytopathic effect / MTT ; value: 2.085 µg/mL
Nc1ccn([C@@H]2O[C@H](COP(=O)(O)O[C@@H]3[C@H](O)[C@@H](COP(=O)(O)O[C@@H]4[C@H](O)[C@@H](CO)O[C@H]4n4ccc(N)nc4=O)O[C@H]3n3ccc(N)nc3=O)[C@@H](O)[C@H]2O)c(=O)n1 ; read by: cytopathic effect / neutral red ; value: 28 µM
Nc1nc2c(ncn2[C@H]2C=C[C@@H](CO)C2)c(=O)[nH]1 ; strain: IIIB ; read by: cytopathic effect ; value: 0.19 µg/mL
CC(C)C1=C2[C@H]3CC[C@@H]4[C@@]5(C)CC[C@H](OC(=O)CC(C)(C)C(=O)O)C(C)(C)[C@@H]5CC[C@@]4(C)[C@]3(C)CC[C@@]2(C(=O)N2CCN(C(=O)OC(C)(C)C)CC2)CC1=O ; strain: IIIB ; read by: RT activity ; setting: 30% human serum ; value: <0.199 µM
Cc1cnccc1C(=O)N[C@H](CSc1ccccc1)[C@@H](O)CN1CCN(Cc2cccnc2)C[C@H]1C(=O)NC(C)(C)C ; strain: RF ; read by: cytopathic effect / MTT ; value: 0.444 µg/mL
CC(C)C1=C2[C@H]3CC[C@@H]4[C@@]5(C)CC[C@H](OC(=O)CC(C)(C)C(=O)O)C(C)(C)[C@@H]5CC[C@@]4(C)[C@]3(C)CC[C@@]2(C(=O)N2C3CCC2CN(C(=O)OC(C)(C)C)C3)CC1=O ; strain: IIIB ; read by: RT activity ; setting: 30% human serum ; value: <0.199 µM
Cc1ncnn1-c1cc(F)ccc1CNC(=O)c1nc2n(c(=O)c1O)CCOCC21CCN(C(=O)N(C)C)CC1 ; strain: NL4-3 ; read by: luciferase / reporter gene ; value: 0.01–0.1 µM
Cc1c(F)cccc1C(=O)N[C@@H](Cc1ccccc1)[C@H](O)CN1C[C@H]2CCCC[C@H]2C[C@H]1C(=O)NC(C)(C)C ; strain: RF ; read by: cytopathic effect / MTT ; value: 1.65 µg/mL
C[C@H]1O[C@](C#CC2CC2)(C(F)(F)F)c2cc(Cl)ccc2NC1=O ; strain: RF ; value: <0.007 µM
Nc1ccn([C@@H]2O[C@H](COP(=O)(O)O[C@@H]3[C@H](O)[C@@H](COP(=O)(O)O[C@@H]4[C@H](O)[C@@H](COP(=O)(O)O[C@@H]5[C@H](O)[C@@H](COP(=O)(O)O)O[C@H]5n5ccc(N)nc5=O)O[C@H]4n4ccc(N)nc4=O)O[C@H]3n3ccc(N)nc3=O)[C@@H](O)[C@H]2O)c(=O)n1 ; read by: cytopathic effect / neutral red ; value: >25 µM
CC(C)[C@@H]1O[C@](C#CC2CC2)(C(F)(F)F)c2cc(Cl)ccc2NC1=O ; strain: RF ; value: <0.0207 µM
Cc1c(O)cccc1C(=O)N[C@@H](CSc1ccc2ccccc2c1)[C@H](O)CN1C[C@H]2CCCC[C@H]2C[C@H]1C(=O)NC(C)(C)C ; strain: RF ; read by: cytopathic effect / MTT ; value: 0.0439 µg/mL
CCN1CCN(CC(=O)NC[C@H](O)[C@@]23CC[C@]4(C)[C@H](CC[C@@H]5[C@@]6(C)CC[C@H](OC(=O)[C@H]7C[C@@H](C(=O)O)C7(C)C)C(C)(C)[C@@H]6CC[C@]54C)C2=C(C(C)C)C(=O)C3)CC1 ; strain: 92HT599 ; read by: p24 / ELISA ; value: <1 µM
O=C1Nc2ccc(Cl)cc2[C@@](C#CC2CC2)(C(F)(F)F)O[C@H]1CC(F)(F)F ; strain: RF ; value: <0.0168 µM
COc1ncc(OC)c2c(C(=O)C(=O)N3CCN(C(=O)c4ccccc4)CC3)c[nH]c12 ; strain: RF ; read by: RT activity ; value: >2 µM
COc1ccc2c(c1)OCCC/C=C\CN(C[C@@H](O)[C@H](Cc1ccccc1)NC(=O)O[C@H]1CO[C@H]3OCC[C@H]31)S2(=O)=O ; strain: LAI ; read by: MTT ; value: 0.023 µM
CC(C)C1=C2[C@H]3CC[C@@H]4[C@@]5(C)CC[C@H](OC(=O)CC(C)(C)C(=O)O)C(C)(C)[C@@H]5CC[C@@]4(C)[C@]3(C)CC[C@@]2(C(=O)Nc2cccnc2)CC1=O ; strain: IIIB ; read by: RT activity ; setting: 30% human serum ; value: <0.199 µM
COc1nc(Nc2ccc(C#N)c(Oc3cccc(/C=C/C#N)c3)c2)nc(OC)n1 ; strain: IIIB ; read by: MTT ; value: 0.85 µM
COc1cnc(-n2cnc(C)n2)c2[nH]cc(C(=O)C(=O)N3C(C)Cc4c(-c5ccccc5)ncnc4N3C)c12 ; strain: LAI ; read by: luciferase / reporter gene ; value: <0.5 µM
Cc1nnc(-c2ccc(C(=O)NC[C@H](O)[C@@]34CC[C@]5(C)[C@H](CC[C@@H]6[C@@]7(C)CC[C@H](OC(=O)[C@H]8C[C@@H](C(=O)O)C8(C)C)C(C)(C)[C@@H]7CC[C@]65C)C3=C(C(C)C)C(=O)C4)cc2)o1 ; strain: 92HT599 ; read by: p24 / ELISA ; value: <1 µM
COc1cnc(-n2cnc(C)n2)c2[nH]cc(C(=O)C(=O)N3CCc4c(ncnc4-c4ccccc4)N3)c12 ; strain: LAI ; read by: luciferase / reporter gene ; value: <0.5 µM
N#Cc1cc(/C=C/Cl)cc(Oc2cc(Nc3nccc(C4CC4)n3)ccc2C#N)c1 ; strain: IIIB ; read by: MTT ; value: 0.49 µM
CC(C)C1=C2[C@H]3CC[C@@H]4[C@@]5(C)CC[C@H](OC(=O)[C@H]6C[C@@H](C(=O)O)C6(C)C)C(C)(C)[C@@H]5CC[C@@]4(C)[C@]3(C)CC[C@@]2([C@@H](O)CNCC(C)(C)NC(=O)c2ccc(OCCN3CCOCC3)cc2)CC1=O ; strain: 92HT599 ; read by: p24 / ELISA ; value: <1 µM
CN(C)C(=O)C(=O)N1CCC2(CC1)OCCn1c2nc(C(=O)NCc2ccc(F)cc2)c(O)c1=O ; strain: NL4-3 ; read by: luciferase / reporter gene ; value: 0.01–0.1 µM
CC(=O)N[C@H](C(=O)N[C@@H](Cc1ccccc1)[C@@H](O)CN(CC1CCCCC1)NC(=O)[C@@H](NC(C)=O)C(C)C)C(C)C ; strain: MN ; read by: RT activity ; value: 0.3 µM
CC(=O)N1CCC2(CC1)COCCn1c2nc(C(=O)NCc2ccc(F)cc2-n2ncnc2C)c(O)c1=O ; strain: NL4-3 ; read by: luciferase / reporter gene ; value: ≥0.1 µM
CCC[C@@H]1O[C@](C#CC2CC2)(C(F)(F)F)c2cc(Cl)ccc2NC1=O ; strain: RF ; value: <0.0172 µM

A second listing of 4 rows from above:

SMILES | strain | read by | setting | value
Nc1ncnc2c1ncn2C[C@@H](CO)OCP(=O)(O)O | LAI | p24 | - | 77.5 µM
CC(C)C1=C2[C@H]3CC[C@@H]4[C@@]5(C)CC[C@H](OC(=O)[C@H]6C[C@@H](C(=O)O)C6(C)C)C(C)(C)[C@@H]5CC[C@@]4(C)[C@]3(C)CC[C@@]2([C@@H](O)CNCC(C)(C)NC(=O)c2ccc(OCCN3CCOCC3)cc2)CC1=O | 92HT599 | p24 / ELISA | - | <1 µM
CC(C)[C@@H]1O[C@](C#CC2CC2)(C(F)(F)F)c2cc(Cl)ccc2NC1=O | RF | - | - | <0.0207 µM
N#Cc1ccc(Nc2nccc(C3CC3)n2)cc1Oc1cc(F)cc(F)c1 | IIIB | MTT | - | 0.78 µM

An empty or dashed field is not shown. ECn: concentration that inhibits the pathogen or its effect by n%. Two numbers with a dash give a range or band.